In patent US20230181714A1 (VANDERBILT UNIVERSITY, published 2023):

Key:
Assay in all cases: cell-based or functional assay
SINV/VEEV (IC: INH9831) = SINV/VEEV (IC: INH9831) (Venezuelan equine encephalitis virus …)
[1] = target: SINV/VEEV (IAB: Trinidad Donkey strain) (Venezuelan equine encephalitis virus …, UniProt P09592 335-757; P09592 813-1254)
[2] = target: SINV/VEEV (IAB: TC-83 strain) (Venezuelan equine encephalitis virus …, UniProt P05674 335-757; P05674 813-1254)

Measured: IC50 of neutralization (FRNT)

B1: VEE-63 (antibody, V domains shown)
VH: QVQLVQSGAEVKKPGASVKVSCKSSGYTFTNYIIHWVRQAPGQRLEWMGWINAGNGNTKYSQKFQGRISVTRDTSASAAYMELSSLKSEDTALYYCATLQMDYGGNGDLDYWGQGTLVTVSS
VL: SYELTQPPSVSVSPGQTARITCSGDALPKQYVYWYQQKPGQAPVLVIYKDSERPSGIPERFSGSSSGTTVTLTISGVQAEDDADYYCQAADSSNTEYVFGTGTKVTVL
< 2 ng/mL: SINV/VEEV (IC: INH9831) | [1] | [2]
